Anti-infective test results gathered from many reports (values: NIAID ChemDB through PubChem).

All rows: enzyme or target tests; species: Hepatitis C virus; target: NS3 protease; endpoint: IC50

ICn is the concentration giving n% inhibition. Lines come from different laboratories, so protocols vary.

SMILES	value
CC(C)C[C@H](NC(=O)[C@@H](Cc1ccc(O)cc1)NC(=O)[C@@H](N)CC(=O)O)C(=O)N[C@@H](CCC(=O)O)C(=O)N[C@@H](CC1CCCCC1)C(=O)N[C@@H](CS)C(=O)O	0.68 µM
CC(=O)N[C@H](C(=O)N[C@H](C(=O)N1C[C@H](Oc2nc3ccccc3s2)CC1C(=O)NC1(C(=O)O)CC1)C(C)C)C1CCCCC1	20 µM
O=C(O)c1cc(F)c(CCNC(=O)[C@H](CC(F)F)NC(=O)[C@H]2C[C@@H](C3CCCC3)CN2C(=O)[C@@H](O)c2ccccc2)c(F)c1	>100 µM
CC(=O)N[C@H](C(=O)N[C@H](C(=O)N1C[C@H](Oc2ccc(-c3ccccc3)cc2)CC1C(=O)NC1(C(=O)O)CC1)C(C)C)C1CCCCC1	35 µM
CC(C)C[C@H](NC(=O)[C@@H](Cc1ccccc1)NC(=O)[C@@H](N)CC(=O)O)C(=O)N[C@@H](CCC(=O)O)C(=O)N[C@@H](CC1CCCCC1)C(=O)N[C@@H](CS)C(=O)O	0.82 µM
CC1=C(C2=C(C)C(=O)C(=O)N(Cc3ccccc3)C2=O)C(=O)N(Cc2ccccc2)C(=O)C1=O	6 µM
CC(=O)N[C@H](C(=O)N[C@H](C(=O)N1C[C@H](Oc2ccc(Cl)c3cccnc23)CC1C(=O)NC1(C(=O)O)CC1)C(C)C)C1CCCCC1	100 µM
CC[C@H](C)[C@H](NC(=O)[C@H](CC(C)C)NC(=O)[C@@H](CC(C(=O)O)C(=O)O)NC(=O)[C@@H](N)CC(=O)O)C(=O)N[C@@H](CC1CCCCC1)C(=O)N[C@@H](CS)C(=O)O	0.0015 µM
O=c1c(Br)cc(CN2CCOCC2)cc(Br)c1O	17.56 µM
CN(C)c1cccc2c(S(=O)(=O)N(C(=O)CC(N)NC(=O)[C@H](CCC(=O)O)NC(=O)[C@@H](N)CC(=O)O)[C@@H](CCC(=O)O)C(=O)N[C@@H](CC3CCCCC3)C(=O)N[C@@H](CS)C(=O)O)cccc12	0.4 µM
O=c1cccccc1O	>200 µM
CC[C@H](NC(=O)[C@H](CC1CCCCC1)NC(=O)C(NC(=O)[C@H](CC(C)C)NC(=O)c1cnccn1)[C@@H](C)CC)C(=O)C(=O)NCC(=O)NS(=O)(=O)c1ccc2ccccc2c1	8.9 µM
CC(=O)N[C@H](C(=O)N[C@H](C(=O)N1C[C@H](Oc2cccnc2)CC1C(=O)NC1(C(=O)O)CC1)C(C)C)C1CCCCC1	190 µM
O=c1c(Br)cc(Br)cc(Br)c1O	≥100 µM
CC(=O)N[C@H](C(=O)N[C@H](C(=O)N1C[C@H](Oc2cccc3cccnc23)CC1C(=O)NC1(C(=O)O)CC1)C(C)C)C1CCCCC1	250 µM
O=C(O)c1cc(F)c(CCNC(=O)[C@H](CC(F)F)NC(=O)[C@H]2C[C@@H](C3CCCC3)CN2C(=O)[C@H](O)c2ccccc2)c(F)c1	>100 µM
CC(=O)N[C@H](C(=O)N[C@H](C(=O)N1C[C@H](Oc2cccnc2-c2ccsc2)CC1C(=O)NC1(C(=O)O)CC1)C(C)C)C1CCCCC1	>200 µM
CCCC[C@H](NC(=O)[C@H](CC(C)C)NC(=O)[C@@H](NC(=O)[C@](C)(Cc1ccccc1)NC(=O)[C@H](NC(=O)[C@H](CC(=O)O)NC(=O)CCC(=O)O)C(C)C)C(C)(C)C)C(=O)C(N)=O	0.02 µM

Repeating the first 2 entries:

| SMILES | value |
|---|---|
| CC(C)C[C@H](NC(=O)[C@@H](Cc1ccc(O)cc1)NC(=O)[C@@H](N)CC(=O)O)C(=O)N[C@@H](CCC(=O)O)C(=O)N[C@@H](CC1CCCCC1)C(=O)N[C@@H](CS)C(=O)O | 0.68 µM |
| CC(=O)N[C@H](C(=O)N[C@H](C(=O)N1C[C@H](Oc2nc3ccccc3s2)CC1C(=O)NC1(C(=O)O)CC1)C(C)C)C1CCCCC1 | 20 µM |